This note sets out measurements from ChEMBL document CHEMBL4619772 (J Med Chem, 2020).

Holding throughout (assay type): toxicity, cell-based
Series [1] in a line: Selectivity index, ratio of CC50 for human A549 cells to EC50 for HIV/EBOV-GP infected in human A549 cells. The procedure, abridged:
(§1)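 Ratio CC50/EC50. CC50 is A549 cytotoxicity by CellTiter 96 aqueous nonradioactive cell proliferation assay.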

Series [2] in a line: Selectivity index, ratio of CC50 for human A549 cells to EC50 for HIV/MARV-GP infected in human A549 cells. The procedure, abridged: as §1
The nature of series [3]: Selectivity index, ratio of CC50 for human HeLa cells to EC50 for Ebola virus 1976 Mayinga in human HeLa cells.

Structures are written as SMILES.

As to `CN(C)CCOc1ccc(/C(=C(/CCCl)c2ccccc2)c2ccccc2)cc1` [TOREMIFENE], the Ratio CC50/EC50 in series [1] worked out at 299; in series [2], 299; in series [3], 51.
